Laboratory results as given in patent US20210403538A1 (VANDERBILT UNIVERSITY, published 2021).

B1: EBOV-515 (antibody, V domains shown)
VH: QVQLQESGPGLVKPSQTLSLTCTVSGGSINSAGYYWTWIRQHPGKGLEWIGYIDYTGRTYYNPSLESRVIISIDTSKNHFSLRLTSVSAADTAVYYCARESSWVSELGRDNWGQGTLVTVSS
VL: EIVMTQSPATLPVSPGEGATLSCRASQSVFTNLAWYQQKPGQAPRLLIYDASTRATGIPARFSGSGSGTEFTLTISSLQSEDFAVYYCQQYNNWPRTYGQGTRVEVK
B2: rEBOV-548 IgG1 (antibody, V domains shown)
VH: QVQVEESGGGVVQPGGSLRLSCAASGFMFSNYGMHWVRQAPGKGLEWMAFIRYDDSKKFYADSVKGRFTISRDNSKNTLYLQMNSLRAEDTALYYCAKELLQVYTSAWGEGHSYYYALDVWGLGTAVTVSS
VL: DIQMTQSPSSVSASVGDRVTITCRASQDISNWLAWYQQKPGKAPELLIYTASILQSGVSSRFSGSGSGTDFTLTISSLQPEDSATYYCQQGKSFPYTFGQGTKLEIK

Tests used:
[1] = target: EBOV GP on recombinant EBOV-eGFP virus (Zaire ebolavirus (EBOV)); assay: cell-based or functional assay
[2] = target: Jurkat-EBOV GP (Zaire ebolavirus (EBOV), Makona)

Binder | Neutralization, IC50 ng/mL [1] | fold increase in binding [2]
B1 | 1220 ng/mL | –
B2 | – | ≤ 1.5 fold
